Laboratory results: PubChem BioAssay AID504761 (Drosophila RNAi Screening Center, 2011)
The deposit covers about 22,000 reagents; this is an unselected part of those with a known target gene and a result. Over the whole deposit, 116 (0.52%) got an active call. 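Calls depend on retest data that are not deposited; infection was ranked per plate without normalising between plates; the unit of the infection score is not given.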 Raw values are not corrected between plates. Reagents against one gene are numbered here. Not given: the amount of reagent, the time to read-out.

Assay: 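Insect host genes that dengue virus relies on to spread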 (primary screen)
Cell system: D.Mel-2 cells from Drosophila
Knock-down reagent: long dsRNA against Drosophila genes
Treatment: infection with dengue virus type 2; dose and infection time not stated
Measured: 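Per well on two replicate plates, imaging gave the percent of cells positive for viral envelope protein, ranked by infection, and a nuclear count of cells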
Reading the numbers: infection score: higher = more virus-infected cells; cell count: higher = more cells in the well
Rule for the call: 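Very low infection ranking in both replicate wells (chance probability at most 0.065), then a retest showing infection dropped 1.5-fold or more at p below 0.05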
Calls: active = confirmed: knock-down lowers infection; inactive = not picked or not confirmed

Depletion of melt came out at: infection score, replicate 1 = 3.01; infection score, replicate 2 = 2.92; cell count, replicate 1 = 6472; cell count, replicate 2 = 5963; inactive.
After knock-down of CG32241 #1, the record shows infection score, replicate 1 = 7.64; infection score, replicate 2 = 9.93; cell count, replicate 1 = 6384; cell count, replicate 2 = 5778; inactive.
Depletion of CG32241 #2 gave: infection score, replicate 1 = 3.04; infection score, replicate 2 = 3.94; cell count, replicate 1 = 5556; cell count, replicate 2 = 5885; inactive.
For CG32241 #3, the values are infection score, replicate 1 = 3.69; infection score, replicate 2 = 1.85; cell count, replicate 1 = 6430; cell count, replicate 2 = 6436; inactive.
After knock-down of Oseg6, the record shows infection score, replicate 1 = 1.42; infection score, replicate 2 = 1.44; cell count, replicate 1 = 6533; cell count, replicate 2 = 6514; inactive.
CG34386 #1 showed infection score, replicate 1 = 15.2; infection score, replicate 2 = 12.2; cell count, replicate 1 = 5884; cell count, replicate 2 = 6795; inactive.
For CG34386 #2, the values are infection score, replicate 1 = 1.79; infection score, replicate 2 = 11.9; cell count, replicate 1 = 6831; cell count, replicate 2 = 7287; inactive.
For CG34386 #3, the entry reads infection score, replicate 2 = 8.94; cell count, replicate 1 = 300; cell count, replicate 2 = 2741; inactive.
Silencing of CG10073 came out at: infection score, replicate 1 = 3.48; infection score, replicate 2 = 1.67; cell count, replicate 1 = 6720; cell count, replicate 2 = 6466; inactive.
After knock-down of mmm the results were infection score, replicate 1 = 1.86; infection score, replicate 2 = 1.15; cell count, replicate 1 = 6070; cell count, replicate 2 = 6166; inactive.
MED1 showed infection score, replicate 1 = 3.43; infection score, replicate 2 = 11.7; cell count, replicate 1 = 6356; cell count, replicate 2 = 6890; inactive.
Atac1 gave infection score, replicate 1 = 1.17; infection score, replicate 2 = 4.89; cell count, replicate 1 = 6397; cell count, replicate 2 = 6076; inactive.
With knock-down of CG13272 #1, the screen gave infection score, replicate 1 = 6.41; infection score, replicate 2 = 5.47; cell count, replicate 1 = 6303; cell count, replicate 2 = 6413; inactive.
Silencing of CG13272 #2 gave: infection score, replicate 1 = 2.47; infection score, replicate 2 = 10.5; cell count, replicate 1 = 7047; cell count, replicate 2 = 5570; inactive.
CG13272 #3 scored infection score, replicate 1 = 8.41; infection score, replicate 2 = 4.2; cell count, replicate 1 = 2379; cell count, replicate 2 = 1263; inactive.
After knock-down of Nbr, the screen gave infection score, replicate 1 = 11.5; infection score, replicate 2 = 34; cell count, replicate 1 = 6598; cell count, replicate 2 = 4583; inactive.
Against Trf4-2 #1, the entry reads infection score, replicate 1 = 0.8; infection score, replicate 2 = 4.23; cell count, replicate 1 = 5848; cell count, replicate 2 = 5488; inactive.
Against Trf4-2 #2, the entry reads infection score, replicate 1 = 3.16; infection score, replicate 2 = 9.12; cell count, replicate 1 = 6545; cell count, replicate 2 = 7086; inactive.
For Grip128, the entry reads infection score, replicate 1 = 4.86; infection score, replicate 2 = 2.89; cell count, replicate 1 = 6444; cell count, replicate 2 = 6472; inactive.
Elys gave infection score, replicate 1 = 11.3; infection score, replicate 2 = 5.98; cell count, replicate 1 = 1489; cell count, replicate 2 = 920; inactive.
Silencing of Acsx1L #1 resulted in: infection score, replicate 1 = 8.35; infection score, replicate 2 = 4.28; cell count, replicate 1 = 6176; cell count, replicate 2 = 3571; inactive.
After knock-down of Acsx1L #2, the screen gave infection score, replicate 1 = 21.4; infection score, replicate 2 = 25.4; cell count, replicate 1 = 1864; cell count, replicate 2 = 5519; inactive.

Look-ups from above:
Under “cell count, replicate 1”, MED1 reads 6356
For “infection score, replicate 1”, Elys is entered as 11.3
